Where two headings read alike, the source gives them in different places.
Tests used:
[1] = test system: HCV replicon A156T variant; experiment: microbe, parasite or virus in culture; conditions: Hepatitis C virus, Huh-7, 96 h, read-out: EC50 against A156T variant
[2] = test system: HCV replicon A156T variant
[3] = test system: NS3/4A protease D168A variant; conditions: relative to the parent 18

## COc1ccc2nc(C)c(O[C@@H]3C[C@H]4C(=O)N[C@]5(C(=O)NS(=O)(=O)C6(C)CC6)C[C@H]5C=CCCCCC[C@H](NC(=O)O[C@@H](C)C(F)(F)F)C(=O)N4C3)nc2c1 (stereo in doubt) [Compound 13, (S)-1,1,1-Trifluoropropan-2-yl ((2R,6S,13aS,14aR,16aS,Z)-2-((7-methoxy-3-methylquinoxalin-2-yl)oxy)-14a-(((1-methylcyclopropyl)sulfonyl)carbamoyl)-5,16-dioxo1,2,3,5,6,7,8,9,10,11,13a,14,14a,15,16,16a-hexadecahydrocyclopropa[e]pyrrolo[1,2-a][1,4]diazacyclopentadecin-6-yl)carbamate]
[1]
  EC50: < 10 nM

## COc1ccc2nc(O[C@@H]3C[C@H]4C(=O)N[C@]5(C(=O)NS(=O)(=O)C6(C)CC6)C[C@H]5C=CCCCCC[C@H](NC(=O)O[C@H](C)C(C)C)C(=O)N4C3)c(C(F)(F)F)nc2c1 (stereo in doubt) [Compound 31, (R)-3-Methylbutan-2-yl ((2R,6S,13aS,14aR,16aS,Z)-2-((6-methoxy-3-(trifluoromethyl)quinoxalin-2-yl)oxy)-14a-(((1-methylcyclopropyl)sulfonyl)carbamoyl)-5,16-dioxo-1,2,3,5,6,7,8,9,10,11,13a,14,14a,15,16,16a-hexadecahydrocyclopropa[e]pyrrolo[1,2-a][1,4]diazacyclopentadecin-6-yl)carbamate]
[2]; less active, compared to 30
  fold less active against the A156T replicon: 5 fold

## COc1ccc2nc(O[C@@H]3C[C@H]4C(=O)N[C@]5(C(=O)NS(=O)(=O)C6(C)CC6)C[C@H]5C=CCCCCC[C@H](NC(=O)OC5CCC5)C(=O)N4C3)c(C(F)(F)F)nc2c1 (stereo in doubt) [Compound 44, Cyclobutyl ((2R,6S,13aS,14aR,16aS,Z)-2-((6-methoxy-3-(trifluoromethyl)quinoxalin-2-yl)oxy)-14a-(((1-methylcyclopropyl)sulfonyl)carbamoyl)-5,16-dioxo-1,2,3,5,6,7,8,9,10,11,13a,14,14a,15,16,16a-hexadecahydrocyclopropa[e]pyrrolo[1,2-a][1,4]diazacyclopentadecin-6-yl)carbamate]
[2]; relative to 5
  fold better potency against the A156T variant: 4 fold

## COc1ccc2nc(O[C@@H]3C[C@H]4C(=O)N[C@]5(C(=O)NS(=O)(=O)C6(C)CC6)C[C@H]5C=CCCCCC[C@H](NC(=O)OC5(C)CCC5)C(=O)N4C3)c(C(F)(F)F)nc2c1 (stereo in doubt) [Compound 45, 1-Methylcyclobutyl ((2R,6S,13aS,14aR,16aS,Z)-2-((6-methoxy-3-(trifluoromethyl)quinoxalin-2-yl)oxy)-14a-(((1-methylcyclopropyl)sulfonyl)carbamoyl)-5,16-dioxo-1,2,3,5,6,7,8,9,10,11,13a,14,14a,15,16,16a-hexadecahydrocyclopropa[e]pyrrolo[1,2-a][1,4]diazacyclopentadecin-6-yl)carbamate]
[2]; relative to 5
  fold better potency against the A156T variant: 2 fold

## COc1ccc2nc(C)c(O[C@@H]3C[C@H]4C(=O)N[C@]5(C(=O)NS(=O)(=O)C6(C)CC6)C[C@H]5/C=C/CCCCC[C@H](NC(=O)OC5CCC5)C(=O)N4C3)nc2c1 [Compound 21]
[1]
  EC50: < 5 nM

## COc1ccc2nc(C)c(O[C@@H]3C[C@H]4C(=O)N[C@]5(C(=O)NS(=O)(=O)C6(C)CC6)C[C@H]5C=CCCCCC[C@H](NC(=O)OC5(C(F)(F)F)CCCC5)C(=O)N4C3)nc2c1 (stereo in doubt) [Compound 24, 1-(Trifluoromethyl)cyclopentyl ((2R,6S,13aS,14aR,16aS,Z)-2-((7-methoxy-3-methylquinoxalin-2-yl)oxy)-14a-(((1-methylcyclopropyl)sulfonyl)carbamoyl)-5,16-dioxo-1,2,3,5,6,7,8,9,10,11,13a,14,14a,15,16,16a-hexadecahydrocyclopropa[e]pyrrolo[1,2-a][1,4]diazacyclopentadecin-6-yl)carbamate]
[3]
  fold improvement in potency against the D168A variant, biochemical assay: 2 fold
[2]; improvement, relative to the parent 18
  fold improvement in antiviral activity against the A156T variant: 8 fold

## COc1ccc2nc(O[C@@H]3C[C@H]4C(=O)N[C@]5(C(=O)NS(=O)(=O)C6(C)CC6)C[C@H]5C=CCCCCC[C@H](NC(=O)OC5(C(F)(F)F)CCCC5)C(=O)N4C3)c(C(F)(F)F)nc2c1 (stereo in doubt) [Compound 48, 1-(Trifluoromethyl)cyclopentyl ((2R,6S,13aS,14aR,16aS,Z)-2-((6-methoxy-3-(trifluoromethyl)quinoxalin-2-yl)oxy)-14a-(((1-methylcyclopropyl)sulfonyl)carbamoyl)-5,16-dioxo-1,2,3,5,6,7,8,9,10,11,13a,14,14a,15,16,16a-hexadecahydrocyclopropa[e]pyrrolo[1,2-a][1,4]diazacyclopentadecin-6-yl)carbamate]
[2]; compared to 42
  fold better potency against the A156T variant: 3 fold

## COc1ccc2nc(C)c(O[C@@H]3C[C@H]4C(=O)N[C@]5(C(=O)NS(=O)(=O)C6(C)CC6)C[C@H]5C=CCCCCC[C@H](NC(=O)OC(C)(C)C(F)(F)F)C(=O)N4C3)nc2c1 (stereo in doubt) [Compound 12, 1,1,1-Trifluoro-2-methylpropan-2-yl ((2R,6S,13aS,14aR,16aS,Z)-2-((7-methoxy-3-methylquinoxalin-2-yl)oxy)-14a-(((1-methylcyclopropyl)sulfonyl)carbamoyl)-5,16-dioxo-1,2,3,5,6,7,8,9,10,11,13a,14,14a,15,16,16a-hexadecahydrocyclopropa[e]pyrrolo[1,2-a][1,4]diazacyclopentadecin-6-yl)carbamate]
[1]
  EC50: < 5 nM

## COc1ccc2nc(O[C@@H]3C[C@H]4C(=O)N[C@]5(C(=O)NS(=O)(=O)C6(C)CC6)C[C@H]5C=CCCCCC[C@H](NC(=O)OCC5(C)CC5(F)F)C(=O)N4C3)c(C(F)(F)F)nc2c1 (stereo in doubt) [Compound 41, (2,2-Difluoro-1-methylcyclopropyl)methyl ((2R,6S,13aS,14aR,16aS,Z)-2-((6-methoxy-3-(trifluoromethyl)quinoxalin-2-yl)oxy)-14a-(((1-methylcyclopropyl)sulfonyl)carbamoyl)-5,16-dioxo-1,2,3,5,6,7,8,9,10,11,13a,14,14a,15,16,16a-hexadecahydrocyclopropa[e]pyrrolo[1,2-a][1,4]diazacyclopentadecin-6-yl)carbamate]
[2]; loss, relative to 36
  fold loss of potency against the A156T variant: 3 fold

## COc1ccc2nc(C)c(O[C@@H]3C[C@H]4C(=O)N[C@]5(C(=O)NS(=O)(=O)C6(C)CC6)C[C@H]5/C=C/CCCCC[C@H](NC(=O)OC5(C)CC5)C(=O)N4C3)nc2c1 [Compound 23]
[2]; less active, relative to 22
  fold less active against the A156T variant: 3 fold

From article PMC9228641 (Journal of medicinal chemistry, 2021)
